A mixed list of measured activities; the numbers were collected in NIAID ChemDB.

Shared fields: tests in culture; agent: Hepatitis B virus; read by: PCR; endpoint: EC50

a–b is a range or a potency band. Blank or dashed fields: not listed here. Rows are shuffled and stem from different studies. ECn is the concentration giving n% inhibition of infection, replication or growth.

CCOC(=O)C1=C(CN2CC(F)(F)[C@@H]3[C@H]2CON3C[C@H](OC)C(C)(C)C(=O)O)NC(c2nccs2)=N[C@H]1c1ccc(F)cc1Cl ; cells: HepG2.2.15 ; value: 0.016 µM
CNC(=O)c1ccc(-n2c(=O)c3c(n4ncc(Cc5ccccc5)c24)CN(C(=O)c2ccc(Br)c(Cl)c2)[C@H](C)C3)cc1 ; cells: HepG2.117 ; conditions: 3 d ; value: <0.1 µM
O=C(c1ccc(Cl)cc1F)N1CCS(=O)(=O)[C@@H](c2cccs2)C1 ; cells: HepG2.117 ; value: 0.5–5 µM
Cc1cc(NC(=O)c2c3c(cn2C)S(=O)(=O)NC2CN(C(=O)C(=O)NCC(F)(F)F)CCC2CO3)ccc1F ; cells: HepAD38 ; value: <0.5 µM
O=C(NCc1ccccc1-c1cnccn1)c1c2n(c(=O)n1-c1ccc(OC3CC3)cc1)CCN(C(=O)c1ccc(Br)c(Cl)c1)C2 ; cells: HepG2.117 ; value: <0.1 µM
O=C(c1cc(F)cc(Cl)c1)N1CCS(=O)(=O)[C@@H](c2cccs2)C1 ; cells: HepG2.117 ; value: 0.5–5 µM
Cc1cc(NC(=O)c2c3c(cn2C)S(=O)(=O)N[C@H]2CN(C(=O)C(=O)N[C@H](C)C(F)(F)F)C[C@H]2CO3)ccc1F ; cells: HepAD38 ; value: <0.5 µM
C#CC1(NC(=O)C(=O)c2c(C)c(C(=O)Nc3ccnc(Br)c3F)n(C)c2C)COC1 ; cells: HepG2.2.15 ; value: 0.01–0.099 µM
C[C@H](NC(=O)c1c2n(c(=O)n1-c1ccc(OC3CC3)cc1)CCN(C(=O)c1ccc(Br)c(Cl)c1)C2)c1ccc(OC(F)F)cc1F ; cells: HepG2.117 ; value: 0.1–0.5 µM
CNC(=O)c1ccc(-n2c(=O)c3c(n4ncc(Nc5ccc(F)cc5)c24)CN(C(=O)c2ccc(Br)c(C#N)c2)CC3)cc1 ; cells: HepG2.117 ; conditions: 3 d ; value: 0.1–0.5 µM
COc1ccc(-n2c(C(=O)NCc3ccncc3)c3n(c2=O)CCN(C(=O)c2ccc(Cl)c(Cl)c2)C3)cc1 ; cells: HepG2.117 ; value: >0.5 µM
C#CCNC(=O)C(=O)c1c(C)c(C(=O)Nc2ccc(F)c(C(F)(F)F)c2)n(C)c1C ; cells: HepG2.2.15 ; value: 0.001–0.00999 µM
Cn1cc(S(=O)(=O)N[C@@H]2CCN(C(=O)C(=O)NCC(F)F)C2)c(F)c1C(=O)Nc1ccc(F)c(F)c1 ; cells: HepAD38 cells ; value: <0.1 µM
O=C1COc2cc(-n3c(C(=O)NCc4ccccc4)c4n(c3=O)CCN(C(=O)c3ccc(Br)c(Cl)c3)C4)ccc2N1 ; cells: HepG2.117 ; value: 0.5–5 µM
CC(=O)Nc1ccc([C@@H](C)N2CCn3nc4c(c3C2=O)CN(C(=O)c2ccc(Cl)c(C(F)(F)F)c2)[C@H](C)C4)cc1 ; value: 0.006 µM
C[C@@H](c1cnc([C@@]2(F)CN(C(=O)c3ccc(Br)c(C#N)c3)CCS2(=O)=O)s1)c1ccccc1F ; cells: HepG2.117 ; value: <0.1 µM
C[C@@H]1[C@@H](C)c2[nH]nc(-c3ncccn3)c2CN1C(=O)Nc1ccc(F)c(C#N)c1 ; cells: HepG2.2.15 ; value: 0.015 µM
CCOC(=O)C1=C(CN2CC(F)(F)[C@H]3[C@@H]2CCN3C[C@@](C)(F)C(=O)O)NC(c2nccs2)=N[C@H]1c1cccc(F)c1C ; cells: HepG2.2.15 ; value: 0.0065 µM
Cc1ccc(-n2c(C(=O)NCc3ccccc3)c3n(c2=O)CCN(C(=O)c2ccc(Br)c(Cl)c2)C3)cc1 ; cells: HepG2.117 ; value: 0.1–0.5 µM
Cn1cc2c(c1C(=O)Nc1cc(F)c(F)c(F)c1)OC[C@@H]1CN(C(=O)C(=O)NC3(C)COC3)C[C@@H]1NS2(=O)=O ; cells: HepG2 ; value: <0.5 µM
CC(C)NS(=O)(=O)N1CCC(NS(=O)(=O)c2cn(C)c(C(=O)Nc3ccc(F)c(F)c3)c2F)CC1 ; cells: HepAD38 cells ; value: <0.1 µM
C[C@H](NC(=O)c1c2n(c(=O)n1-c1ccc(OC3CC3)cc1)CCN(C(=O)c1ccc(Br)c(Cl)c1)C2)c1ccc(OC(F)(F)F)cc1 ; cells: HepG2.117 ; value: 0.5–5 µM
Cn1cc2c(c1C(=O)Nc1ccc(F)c(Cl)c1)OC[C@@H]1CN(C(=O)C(=O)NC3(C)COC3)C[C@@H]1NS2(=O)=O ; cells: HepAD38 ; value: <0.5 µM
O=C(c1ccc(Cl)c(F)c1)N1CCS(=O)(=O)[C@@H](c2cccs2)C1 ; cells: HepG2.117 ; value: 0.1–0.5 µM
C=C[C@@](C)(CO)NC(=O)C(=O)c1c(C)c(C(=O)Nc2ccc(F)c(C(F)(F)F)c2)n(C)c1C ; cells: HepG2.2.15 ; value: 0.001–0.0099 µM
CCOC(=O)C1=C(CN2CC(F)(F)[C@@H]3[C@H]2CON3C[C@@H](OC)C(C)(C)C(=O)O)NC(c2nccs2)=N[C@H]1c1ccc(F)cc1Cl ; cells: HepG2.2.15 ; value: 0.025 µM
Cc1cc(NC(=O)c2c3c(cn2C)S(=O)(=O)NC2(C)CN(C(=O)C(=O)N[C@H](C)C(F)(F)F)CC2CO3)ccc1F ; cells: HepAD38 ; value: <0.5 µM
CNC(=O)C(=O)N1CCC(NS(=O)(=O)c2cn(C)c(C(=O)Nc3cc(F)cc(Cl)c3)c2F)CC1 ; cells: HepAD38 cells ; value: <0.1 µM
C[C@H](c1cnc([C@@]2(F)CN(C(=O)c3ccc(Br)c(Cl)c3)CCS2(=O)=O)s1)c1ccccc1F ; cells: HepG2.117 ; value: <0.1 µM
COC(=O)C1=C(CN2CC(F)(F)[C@@H]3[C@H]2CON3C[C@@H](OC)C(C)(C)C(=O)O)NC(c2nccs2)=N[C@H]1c1ccc(F)c(F)c1C ; cells: HepG2.2.15 ; value: 0.016 µM
C[C@H]1c2[nH]nc(-c3ncccn3)c2CN(C(=O)Nc2ccnc(Br)c2F)[C@H]1C ; cells: HepG2.2.15 ; value: 0.039 µM
NC(=O)c1ccc(-n2c(=O)c3c(n4ncc(NCc5ccccc5)c24)CN(C(=O)c2ccc(Cl)c(Cl)c2)CC3)cc1 ; cells: HepG2.117 ; conditions: 3 d ; value: <0.1 µM
C[C@@H]1CS(=O)(=O)[C@@](F)(c2ncc(Cc3ccccc3)s2)CN1C(=O)c1ccc(Br)c(Cl)c1 ; cells: HepG2.117 ; value: <0.1 µM
CC(=O)Nc1cccc([C@H](C)N2CCn3nc4c(c3C2=O)CN(C(=O)c2ccc(Cl)c(C#N)c2)[C@H](C)C4)c1 ; cells: HepG2.117 ; value: 0.127 µM
C[C@H](Oc1ccc([C@H](C)NC(=O)c2c3n(c(=O)n2-c2ccc(OCC(F)(F)F)cc2)CCN(C(=O)c2ccc(Br)c(Cl)c2)C3)c(F)c1)C(N)=O ; cells: HepG2.117 ; value: 0.1–0.5 µM
CNC(=O)c1ccc(-n2c(=O)c3c(n4ncc(Cc5ccc(C#N)cc5F)c24)CN(C(=O)c2ccc(Br)c(C#N)c2)CC3)cc1 ; cells: HepG2.117 ; conditions: 3 d ; value: 0.5–5 µM
C#CCNC(=O)C(=O)c1cn(C)c(C(=O)Nc2ccc(F)c(C#N)c2)c1Cl ; cells: HepG2.2.15 ; value: 0.01–0.099 µM
O=C(NCCc1ccccc1)C1CN(C(=O)c2ccc(Br)c(Cl)c2)CCS1(=O)=O ; cells: HepG2.117 ; value: 0.5–5 µM
C[C@@H]1c2[nH]nc(-c3ncccn3)c2CN(C(=O)Nc2ccc(F)c(C#N)c2)[C@H]1C ; cells: HepG2.2.15 ; value: 0.007 µM
CNC(=O)c1ccc(-n2c(=O)c3c(n4ncc(NCc5ccc(OC(F)(F)F)cc5)c24)CN(C(=O)c2ccc(Br)c(Cl)c2)CC3)cc1 ; cells: HepG2.117 ; conditions: 3 d ; value: <0.1 µM
CCOC(=O)C1=C(CN2CC(F)(F)[C@H]3[C@@H]2CCN3C[C@@](C)(F)C(=O)O)NC(c2nc(C)cs2)=N[C@H]1c1cccc(F)c1C ; cells: HepG2.2.15 ; value: 0.0035 µM
C#CC1(NC(=O)C(=O)c2c(C)c(C(=O)Nc3ccc(Br)c(Cl)c3)n(C)c2C)CC(F)(F)C1 ; cells: HepG2.2.15 ; value: 0.001–0.0099 µM
COC(=O)C1=C(CN2CC(F)(F)[C@@H]3[C@H]2CON3CC[C@](C)(O)C(=O)O)NC(c2nccs2)=N[C@H]1c1ccc(F)c(F)c1C ; cells: HepG2.2.15 ; value: 0.15 µM
CCONC(=O)C(=O)N1CC[C@@H](NS(=O)(=O)c2cn(C)c(C(=O)Nc3cc(F)c(F)c(F)c3)c2F)C1 ; cells: HepAD38 cells ; value: <0.1 µM
Cc1c(C(=O)C(=O)NC(C)(C)c2cscn2)c(C)n(C)c1C(=O)Nc1ccc(F)c(C#N)c1 ; cells: HepG2.2.15 ; value: 0.001–0.0099 µM
CC(=O)Nc1ccc([C@H](C)N2CCn3nc4c(c3C2=O)CN(C(=O)c2ccc(Cl)c(C(F)(F)F)c2)[C@H](C)C4)cc1 ; cells: HepG2.117 ; value: 0.011 µM
COc1ccc(-n2c(=O)c3c(n4ncc(NS(=O)(=O)c5ccccc5)c24)CN(C(=O)c2ccc(Br)c(Cl)c2)CC3)cc1 ; cells: HepG2.117 ; conditions: 3 d ; value: <0.1 µM
CCOC(=O)C1=C(CN2CC(F)(F)[C@H]3[C@@H]2CCN3C[C@H](F)C(C)(C)C(=O)O)NC(c2nc(C)cs2)=N[C@H]1c1cccc(F)c1C ; cells: HepG2.2.15 ; value: 0.0045 µM
C[C@@H]1Cc2nn3c(c2CN1C(=O)c1ccc(Cl)c(Cl)c1)C(=O)N([C@H](C)c1ccc(NS(C)(=O)=O)cc1)CC3 ; cells: HepG2.117 ; value: 0.061 µM
COC(=O)C1=C(CN2CC(F)(F)[C@@H]3[C@H]2CON3C[C@H](OC)C(C)(C)C(=O)O)NC(c2nccs2)=N[C@H]1c1cccc(F)c1Cl ; cells: HepG2.2.15 ; value: 0.033 µM
C#CCNC(=O)C(=O)c1c(F)c(C(=O)Nc2ccc(F)c(C#N)c2)n(C)c1Br ; cells: HepG2.2.15 ; value: 0.01–0.099 µM

A second listing of 6 rows from above:

structure | cells | conditions | value
CC(=O)Nc1cccc([C@H](C)N2CCn3nc4c(c3C2=O)CN(C(=O)c2ccc(Cl)c(C#N)c2)[C@H](C)C4)c1 | HepG2.117 |  | 0.127 µM
C[C@@H]1CS(=O)(=O)[C@@](F)(c2ncc(Cc3ccccc3)s2)CN1C(=O)c1ccc(Br)c(Cl)c1 | HepG2.117 |  | <0.1 µM
Cc1c(C(=O)C(=O)NC(C)(C)c2cscn2)c(C)n(C)c1C(=O)Nc1ccc(F)c(C#N)c1 | HepG2.2.15 |  | 0.001–0.0099 µM
CNC(=O)C(=O)N1CCC(NS(=O)(=O)c2cn(C)c(C(=O)Nc3cc(F)cc(Cl)c3)c2F)CC1 | HepAD38 cells |  | <0.1 µM
C[C@H](NC(=O)c1c2n(c(=O)n1-c1ccc(OC3CC3)cc1)CCN(C(=O)c1ccc(Br)c(Cl)c1)C2)c1ccc(OC(F)(F)F)cc1 | HepG2.117 |  | 0.5–5 µM
O=C(NCCc1ccccc1)C1CN(C(=O)c2ccc(Br)c(Cl)c2)CCS1(=O)=O | HepG2.117 |  | 0.5–5 µM